{
  "source": "patent US20240181044A1",
  "biological_target": "RBD (SARS-COV-2) (UniProt P0DTC2)",
  "experiment": "SPR",
  "data": [
    {"substance": "C135", "values": [
      {"measurement": "Kd", "result": 2.4, "unit": "nM"}
    ]}
  ]
}
